A mixed list of measured activities; the numbers were collected in NIAID ChemDB.

All rows: target-level tests; protein: CCR5; read by: radiometric; read-out: IC50

ICn is the concentration giving n% inhibition. Conditions beyond the fields shown may differ between rows.

SMILES,value
CCN(C(=O)Cc1ccc(S(C)(=O)=O)cc1)C1CCN(CCC(c2cccc(F)c2)N2CCN(c3ccc(F)cc3)CC2)CC1,0.004 µM
CCCCOCCOc1ccc(-c2ccc3c(c2)C=C(C(=O)Nc2ccc(C(O)c4cccc(C)[n+]4[O-])cc2)CCN3CC(C)C)cc1,0.18 µM
CS(=O)(=O)c1ccc(NC(=O)N(CCCN2CCC(Cc3ccc(F)cc3)CC2)c2ccccc2)cc1,0.026 µM
CCCCOCCOc1ccc(-c2ccc3c(c2)C=C(C(=O)Nc2ccc(S(=O)Cc4nccn4C)cc2)CCN3CC(C)C)cc1,0.014 µM
CC(=O)N1CCC(C(=O)N(CCN2CCC(Cc3ccc(F)cc3)CC2)c2ccc(Cl)c(Cl)c2)CC1,0.48 µM
O=C(Nc1ccc(Cl)cc1)N(CCCN1CCC(Cc2ccc(F)cc2)CC1)c1ccccc1,0.0078 µM
CCCCOCCOc1ccc(-c2ccc3c(c2)C=C(C(=O)Nc2ccc(C(O)c4cccc[n+]4[O-])c(C(F)(F)F)c2)CCN3CC(C)C)cc1,0.014 µM
COc1ccc(N(CCCN2CCC(Cc3ccc(F)cc3)CC2)C(=O)C2CCN(C(C)=O)CC2)cc1Cl,0.03 µM
CCCCOCCOc1ccc(-c2ccc3c(c2)C=C(C(=O)Nc2ccc(CN(C)C4CCOCC4)cc2)CCN3CCC(C)C)cc1,0.032 µM
CCCCOCCOc1ccc(-c2ccc3c(c2)C=C(C(=O)Nc2ccc(S(=O)Cc4nccn4CC)cc2)CCN3CC(C)C)cc1,0.0066 µM
CCN(C(=O)Cc1ccc(S(C)(=O)=O)cc1)C1CCN(CCC(c2ccccc2)C2CCN(S(=O)(=O)CC)CC2)CC1,0.003 µM
O=C(Nc1ccc(Cl)cc1)N(CCCN1CCC(Cc2ccccc2)CC1)c1cccc(Cl)c1,0.019 µM
CC(C)S(=O)(=O)c1ccc(CC2CCN(CCCN(C(=O)C3CCN(S(C)(=O)=O)CC3)c3ccc(Cl)c(Cl)c3)CC2)cc1,0.0015 µM
CN1CC(C(=O)N(CCCN2CCC(C(=O)c3ccc(F)cc3)CC2)c2ccccc2)CC1=O,1.9 µM
COc1ccc(N(CCCN2CCC(Cc3ccc(F)cc3)CC2)C(=O)C2CCN(C(C)=O)CC2)cc1Cl,0.03 µM
CN1CC(C(=O)N(CCN2CCC(C(=O)c3ccc(F)cc3)CC2)c2ccccc2)CC1=O,>10 µM
CN1CC(C(=O)N(CCCN2CCC3(C=Cc4ccccc43)CC2)c2ccccc2)CC1=O,>1 µM
CCCCOCCOc1ccc(-c2ccc3c(c2)C=C(C(=O)Nc2ccc(CN(C)C4CCOCC4)cc2)CCN3CCC)cc1,0.0035 µM
CN1CC(C(=O)N(CCCN2CCC(CCc3ccccc3)CC2)c2ccccc2)CC1=O,1.1 µM
O=C(Nc1ccccc1)N(CCCN1CCC(Cc2ccccc2)CC1)c1ccccc1,0.018 µM
CCCCOCCOc1ccc(-c2ccc3c(c2)C=C(C(=O)Nc2ccc(C(O)c4cccc[n+]4[O-])c(C)c2)CCN3CC(C)C)cc1,0.032 µM
CSc1ccc(CC2CCN(CCCN(C(=O)C3CCN(S(C)(=O)=O)CC3)c3ccc(Cl)c(Cl)c3)CC2)cc1,0.0031 µM
c1ccc(CN2C[C@@H](CN3CCC(c4ccccc4)CC3)[C@H](c3ccccc3)C2)cc1,0.152 µM
O=C1CC(C(=O)N(CCCN2CCC(Cc3ccccc3)CC2)c2ccccc2)CN1Cc1ccccc1Cl,<1 µM
CS(=O)(=O)N1CCC(C(=O)N(CCCN2CCC(Cc3ccccc3)CC2)c2ccccc2)CC1,0.04 µM
CCN(C(=O)Cc1ccc(S(C)(=O)=O)cc1)C1CCN(CCC(c2ccccc2)N2CCN(S(=O)(=O)c3ccccc3)CC2)CC1,0.01 µM
CC(=O)N1CCCC(C(=O)N(CCCN2CCC(Cc3ccccc3)CC2)c2ccccc2)C1,0.68 µM
CCCCOCCOc1ccc(-c2ccc3c(c2)C=C(C(=O)Nc2ccc(CN(C)C4CCOCC4)cc2)CCN3CC2CCCCC2)cc1,0.014 µM
CN1CC(C(=O)N(CCCN2CCC(Cc3ccccc3)CC2)Cc2ccccc2)CC1=O,<1 µM
CCCCOCCOc1ccc(-c2ccc3c(c2)C=C(C(=O)Nc2ccc(CN(C)C4CCOCC4)cc2)CCN3CC(C)C)cc1,0.0036 µM
Cc1ccc(-c2ccc3c(c2)C=C(C(=O)Nc2ccc(CP4(=O)CCCCC4)cc2)CCO3)cc1,0.41 µM
O=C1CC(C(=O)N(CCCN2CCC(Cc3ccccc3)CC2)c2ccccc2)CN1Cc1ccccc1,<1 µM
O=C(OCc1ccccc1)N1CCC(C(=O)N(CCCN2CCC(Cc3ccccc3)CC2)c2ccccc2)CC1,0.048 µM
CCCCOCCOc1ccc(-c2ccc3c(c2)C=C(C(=O)Nc2ccc(S(=O)Cc4nncn4CCC)cc2)CCN3CCC)cc1,0.0043 µM
CCCCOCCOc1ccc(-c2ccc3c(c2)C=C(C(=O)Nc2ccc(C(O)c4cccc[n+]4[O-])c(Cl)c2)CCN3CC(C)C)cc1,0.024 µM
O=C(NCc1ccccc1)N(CCCN1CCC(Cc2ccccc2)CC1)c1ccccc1,0.15 µM
CC(=O)N1CCC(C(=O)N(CCCN2CCC(Cc3ccc(F)cc3)CC2)c2cccc(Cl)c2)CC1,0.003 µM
CSc1ccc(NC(=O)N(CCCN2CCC(Cc3ccc(F)cc3)CC2)c2ccccc2)cc1,0.015 µM
O[C@@]1(c2ccccc2)CN(Cc2ccccc2)C[C@H]1CN1CCC(c2ccccc2)CC1,>10 µM
CC(=O)N(CCCN1CCC(Cc2ccccc2)CC1)c1ccccc1,0.29 µM
CCCCOCCOc1ccc(-c2ccc3c(c2)C=C(C(=O)Nc2ccc(C(O)c4cc(C)cc[n+]4[O-])cc2)CCN3CC(C)C)cc1,0.032 µM
CN1CC(C(=O)N(CCCN2CCC(Cc3ccccc3)CC2)c2cccc(Cl)c2)CC1=O,<1 µM
CCc1ccc(-c2ccc3c(c2)C=C(C(=O)Nc2ccc(CN(C)C4CCOCC4)cc2)CCS3(=O)=O)cc1,0.06 µM
CN(CC(CCN1CCC(c2ccccc2)CC1)c1ccccc1)S(=O)(=O)c1ccccc1,0.12 µM
CCCCOCCOc1ccc(-c2ccc3c(c2)C=C(C(=O)Nc2ccc(S(=O)Cc4nncn4CCC)cc2)CCN3CC(C)C)cc1,0.0026 µM
CN1CC(C(=O)N(CCCN2CCC(c3ccccc3)CC2)c2ccccc2)CC1=O,3.6 µM
CCN(C(=O)Cc1ccc(S(C)(=O)=O)cc1)C1CCN(CCC(c2ccccc2)N2CCN(C(=O)c3ccccc3)CC2)CC1,0.014 µM
Cc1ccc(NC(=O)N(CCCN2CCC(Cc3ccc(F)cc3)CC2)c2ccccc2)cc1,0.0066 µM
CS(=O)(=O)N(CCCN1CCC(Cc2ccccc2)CC1)c1ccccc1,~10 µM
CCCCOCCOc1ccc(-c2ccc3c(c2)C=C(C(=O)Nc2ccc([C@@H](O)c4cccc[n+]4[O-])c(C(F)(F)F)c2)CCN3CC(C)C)cc1,0.043 µM
CN1CC(C(=O)N(CCCCN2CCC(C(=O)c3ccc(F)cc3)CC2)c2ccccc2)CC1=O,>1 µM
CCCCOCCOc1ccc(-c2ccc3c(c2)C=C(C(=O)Nc2ccc([S@](=O)Cc4nncn4CCC)cc2)CCN3CC(C)C)cc1,0.0044 µM
CCCCOCCOc1ccc(-c2ccc3c(c2)C=C(C(=O)Nc2ccc(C(O)c4ccc(C)c[n+]4[O-])cc2)CCN3CC(C)C)cc1,0.21 µM
CCN(C(=O)Cc1ccc(S(C)(=O)=O)cc1)C1CCN(CCC(c2cccc(F)c2)C2CCN(Cc3cccnc3)CC2)CC1,0.001 µM
CCCCOCCOc1ccc(-c2ccc3c(c2)C=C(C(=O)Nc2ccc([S@@](=O)Cc4nncn4CCC)cc2)CCN3CCC)cc1,0.0016 µM

A second listing of 5 rows from above:

{"SMILES": "CCCCOCCOc1ccc(-c2ccc3c(c2)C=C(C(=O)Nc2ccc(CN(C)C4CCOCC4)cc2)CCN3CC(C)C)cc1", "value": "0.0036 µM"}
{"SMILES": "Cc1ccc(NC(=O)N(CCCN2CCC(Cc3ccc(F)cc3)CC2)c2ccccc2)cc1", "value": "0.0066 µM"}
{"SMILES": "CCCCOCCOc1ccc(-c2ccc3c(c2)C=C(C(=O)Nc2ccc([S@@](=O)Cc4nncn4CCC)cc2)CCN3CCC)cc1", "value": "0.0016 µM"}
{"SMILES": "O[C@@]1(c2ccccc2)CN(Cc2ccccc2)C[C@H]1CN1CCC(c2ccccc2)CC1", "value": ">10 µM"}
{"SMILES": "CCCCOCCOc1ccc(-c2ccc3c(c2)C=C(C(=O)Nc2ccc(CN(C)C4CCOCC4)cc2)CCN3CCC)cc1", "value": "0.0035 µM"}